Compound potency records, mixed from different reports. Data source: NIAID ChemDB in PubChem.

Shared fields: enzyme or target tests; agent: HIV-1; protein: gp120; read-out: inhibition

An empty or dashed field is not shown. Percent inhibition refers to the dose given; in toxicity tests it is the harm to the cells. Lines come from different laboratories, so protocols vary.

compound | read by | strain | tested at | setting | value
O=C(O[C@@H]1Cc2c(O)cc(O)cc2O[C@@H]1c1cc(O)c(O)c(O)c1-c1c([C@H]2Oc3cc(O)cc(O)c3C[C@H]2OC(=O)c2cc(O)c(O)c(O)c2)cc(O)c(O)c1O)c1cc(O)c(O)c(O)c1 | ELISA |  | 20 µM |  | 1.2%
O=CC(O)C(OC(=O)c1cc(O)c(O)c(O)c1)C1OC(=O)c2cc(O)c(O)c(O)c2-c2c(cc(O)c(O)c2O)C(=O)OCC1O | binding |  | 0.78 µg/mL |  | 1.9%
C[n+]1ccc(-c2c3nc(c(-c4cc[n+](C)cc4)c4ccc([nH]4)c(-c4cc[n+](C)cc4)c4nc(c(-c5cc[n+](C)cc5)c5ccc2[nH]5)C=C4)C=C3)cc1 |  |  | 60 µg/mL |  | 28.4%
O=S(=O)(O)c1cc(O)c2c(NS(=O)(=O)c3ccc(-c4ccc(S(=O)(=O)Nc5cc(S(=O)(=O)O)cc6cc(S(=O)(=O)O)cc(O)c56)cc4)cc3)cc(S(=O)(=O)O)cc2c1 | fluorescence |  | 100 µg/mL |  | 66%
NOCc1c(F)cccc1Cl | ELISA |  | 0.16 µg/mL |  | 0%
C=Cc1c(C)c2cc3[nH]c(cc4nc(cc5nc(cc1[nH]2)C(C)=C5CCC(=O)OC)C(CCC(=O)OC)=C4C)c(C)c3C=C |  |  | 60 µg/mL |  | 0%
O=CC1OC(=O)c2cc(O)c(O)c(O)c2Oc2cc3c(c(O)c2O)-c2c(cc(O)c(O)c2O)C(=O)OCC2OC(OC(=O)c4cc(O)c(O)c(O)c4Oc4cc5c(c(O)c4O)-c4c(cc(O)c(O)c4O)C(=O)OC(C(O)COC5=O)C1OC(=O)c1cc(O)c(O)c(O)c1)C(OC(=O)c1cc(O)c(O)c(O)c1)C(OC(=O)c1cc(O)c(O)c(O)c1)C2OC3=O | binding |  | 0.78 µg/mL |  | 43%
COc1ccnc2[nH]cc(C(=O)C(=O)N3CCN(C(=O)c4ccccc4)C[C@H]3C)c12 | ELISA | YU2 | 1 µM |  | 76.5%
CC(C)(CS(=O)(=O)[O-])[NH2+]C(=O)C(CC(F)(OC(F)(F)C(F)(OC(F)(F)C(F)(OC(F)(F)C(F)(F)C(F)(F)F)C(F)(F)F)C(F)(F)F)C(F)(F)F)C(F)(OC(F)(F)C(F)(OC(F)(F)C(F)(OC(F)(F)C(F)(F)C(F)(F)F)C(F)(F)F)C(F)(F)F)C(F)(F)F | ELISA |  | 100 µg/mL |  | 88%
C1=Cc2nc1c(-c1ccccc1)c1ccc([nH]1)c(-c1ccccc1)c1nc(c(-c3ccccc3)c3ccc([nH]3)c2-c2ccccc2)C=C1 |  |  | 60 µg/mL |  | 0%
O=S(=O)(O)c1cc(N=C=S)ccc1/C=C/c1ccc(N=C=S)cc1S(=O)(=O)O | binding |  | 10 µM |  | 0%
C=Cc1c(C)c2cc3nc(cc4[nH]c(cc5nc(cc1[nH]2)C(C)=C5CO)c(C)c4CCC(=O)O)C(CCC(=O)O)=C3C |  |  | 60 µg/mL |  | 82.6%
Cc1ncc(COP(=O)(O)O)c(C=O)c1O | binding |  | 100 µM |  | 0%
O=C(O)CCC1=C(CC(=O)O)c2cc3nc(cc4[nH]c(cc5[nH]c(cc1n2)c(CC(=O)O)c5CCC(=O)O)c(CC(=O)O)c4CCC(=O)O)C(CC(=O)O)=C3CCC(=O)O |  |  | 60 µg/mL |  | 41.1%
CN1C(=O)C(c2cc(Cl)c(O)c(Cl)c2)NC(=O)[C@@H]2NC(=O)C(c3cc(Cl)c(O)c(Cl)c3)NC(=O)[C@H](NC(=O)C(=O)c3cc(Cl)c(O)c(Cl)c3)Cc3c[nH]c4c(cccc34)-c3cc2cc(c3O)Oc2ccc(cc2)CC1C(=O)NC(C(=O)O)c1ccc(O)cc1 | ELISA |  | 10 µM |  | 83%
Clc1ccc(CNc2ccccc2Cn2ccnc2)cc1 | fluorescence | IIIB | 10 µg/mL |  | 95%
CC1=C(CCC(=O)O)c2cc3nc(cc4[nH]c(cc5[nH]c(cc1n2)c(C)c5CCC(=O)O)c(CCC(=O)O)c4C)C(CCC(=O)O)=C3C |  |  | 60 µg/mL |  | 8.5%
O=S(=O)(O)c1c2ccccc2c(-c2c3nc(c(-c4c5ccccc5c(S(=O)(=O)O)c5ccccc45)c4ccc([nH]4)c(-c4c5ccccc5c(S(=O)(=O)O)c5ccccc45)c4nc(c(-c5c6ccccc6c(S(=O)(=O)O)c6ccccc56)c5ccc2[nH]5)C=C4)C=C3)c2ccccc12 | ELISA | IIIB | 50 µg/mL |  | 100%
COC(=O)C(=O)N1CCC[C@@H]1C(=O)N[C@H](Cc1ccccc1)C(=O)OCc1ccccc1 | ELISA |  | 500 µM | 10% FBS | 13%
O=S(=O)(O)c1c2ccccc2c(-c2c3nc(c(-c4c5ccccc5c(S(=O)(=O)O)c5ccccc45)c4ccc([nH]4)c(-c4c5ccccc5c(S(=O)(=O)O)c5ccccc45)c4nc(c(-c5c6ccccc6c(S(=O)(=O)O)c6ccccc56)c5ccc2[nH]5)C=C4)C=C3)c2ccccc12 | ELISA | IIIB | 50 µg/mL |  | 100%
C=Cc1c(C)c2cc3c(C=C)c(C)c(cc4nc(cc5nc(cc1[nH]2)C(C)=C5CCC(=O)O)C(CCC(=O)O)=C4C)n3C |  |  | 60 µg/mL |  | 77.2%
O=C(O[C@@H]1Cc2c(O)cc(O)cc2O[C@@H]1c1cc(O)c(O)c(O)c1)c1cc(O)c(O)c(O)c1 | ELISA |  | 20 µM |  | 0.8%

Repeating the first 3 entries:

compound	read by	strain	tested at	setting	value
O=C(O[C@@H]1Cc2c(O)cc(O)cc2O[C@@H]1c1cc(O)c(O)c(O)c1-c1c([C@H]2Oc3cc(O)cc(O)c3C[C@H]2OC(=O)c2cc(O)c(O)c(O)c2)cc(O)c(O)c1O)c1cc(O)c(O)c(O)c1	ELISA		20 µM		1.2%
O=CC(O)C(OC(=O)c1cc(O)c(O)c(O)c1)C1OC(=O)c2cc(O)c(O)c(O)c2-c2c(cc(O)c(O)c2O)C(=O)OCC1O	binding		0.78 µg/mL		1.9%
C[n+]1ccc(-c2c3nc(c(-c4cc[n+](C)cc4)c4ccc([nH]4)c(-c4cc[n+](C)cc4)c4nc(c(-c5cc[n+](C)cc5)c5ccc2[nH]5)C=C4)C=C3)cc1			60 µg/mL		28.4%